Target: T1, Recombinant CHIKV E2 ectodomain protein (corresponding to the CHIKV-LR2006 strain) (Chikungunya virus strain LR2006)
T1 construct: extracellular domain; also called CHIKV-LR2006 E2 ectodomain; purified E2 protein
Assay: ELISA, E2 ectodomain coated, mAb at 10 µg/mL

| Binder | OD [od] |
| --- | --- |
| 5O14 (antibody, V domains shown) VH: QVQLVQSGGRVVQAGRSLRLSCAASGFTFSMYGVHWVRQAPGKGLEWVAVIWNDGSKEYYGDSVKGRFTISRDNSRNTLYLQMNSLRVDDTAVYFCARDGIPDPERGDYGGLDYWGQGTLVTVSS VL: QTVVTQFPSSPFASVGDGVTITCRARQSISSYVNWYQQKPGKAPKLLIYATSSLQSGVPSRFSGSGYGTDFTLTISGLQPEDFATYYCQQSYSFPRTFGQGTKVEIK | > 1 |
| 2B4 (antibody, V domains shown) VH: QVQLVQSGSELKKPGASVKVSCKASGYSFTSYSINWVRQAPGQGPEWMGWIDTNTGNPTYAQDFAGRFVFSLDTSVTTAYLQISSLKAGDTAVYYCATYYVDLWGSYRQDYYGMDVWGH VL: QSVLTQPPSASGTPGQRVTISCSGGSSNIGSNPVNWYQMVPGTAPKLLLYTNNQRPSGVPDRFSGSKSGTSASLAINGLQSEDEADYYCAVWDDSLSGRWVFGGGTKVTVL | 0.5 to 0.99 |
| 4J21 (antibody, V domains shown) VH: QVQLVQSGSELKKPGASVKVSCKASGYSFTSYSINWVRQAPGQGPEWMGWIDTNTGNPTYAQDFAGRFVFSLDTSVTTAYLQISSLKAGDTAVYYCATYYVDLWGSYRQDYYGMDVWGHGTLVTVSS VL: QSVVTQPPSVSGTPGQGVTISCSGGSSNIGSNPVNWYQMVPGTAPKLLLYTNNQRPSGVPDRFSGSKSGTSASLAINGLQSEDEADYYCAVWDDSLSGRWVFGGGTKLTVL | 0.5 to 0.99 |

Reference: patent publication US20180079802A1 (VANDERBILT UNIVERSITY, published 2018)
